Measured values from patent US8530486B2, “Quinazolines and related heterocyclic compounds, and their therapeutic use” (Vereniging Voor Christelijk Hoger Onderwijs, …, priority 2008, dated 2013).

Protein sequences, listed by entry. Tags and fused reporters are not part of them. Lines headed by an entry give the natural chain unless they say otherwise; changes in a name come on top.
UniProt Q9H3N8: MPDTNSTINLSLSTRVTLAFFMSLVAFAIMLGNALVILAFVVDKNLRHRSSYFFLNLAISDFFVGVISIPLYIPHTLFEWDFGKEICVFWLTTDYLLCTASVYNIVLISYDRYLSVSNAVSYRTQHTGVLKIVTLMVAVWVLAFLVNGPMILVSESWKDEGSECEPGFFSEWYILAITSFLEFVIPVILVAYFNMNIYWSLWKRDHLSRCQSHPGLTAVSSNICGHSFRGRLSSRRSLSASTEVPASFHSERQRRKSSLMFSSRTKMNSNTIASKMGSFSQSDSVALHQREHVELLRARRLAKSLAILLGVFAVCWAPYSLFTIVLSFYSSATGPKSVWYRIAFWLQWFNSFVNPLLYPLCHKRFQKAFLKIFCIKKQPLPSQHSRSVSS

Target: T1, human H4 receptor (Homo sapiens, UniProt Q9H3N8)
T1 construct: expressed in transfected cells; host or cells: HEK 293T cells, transient transfection with polyethyleneimine
Test: [3H]Histamine binding assay (radioligand displacement at the human H4 receptor)

Compound: CN1CCN(c2nc(NCCS(=O)(=O)N3CCOCC3)c3cc(Cl)ccc3n2)CC1 [Example 7, 6-chloro-2-(4-methylpiperazin-1-yl)-N-(2-(morpholinosulfonyl)ethyl)quinazolin-4-amine]
- Ki: < 1 µM
